Measurements reported in publication PMC5109037, “Harnessing Nature’s Diversity: Discovering organophosphate bioscavenger characteristics among low molecular weight proteins” (2016).

Amino acid sequences for entries named in this document (tags omitted). Residues count along the entry.
UniProt Q8DTF4, 1-275 limits assumed: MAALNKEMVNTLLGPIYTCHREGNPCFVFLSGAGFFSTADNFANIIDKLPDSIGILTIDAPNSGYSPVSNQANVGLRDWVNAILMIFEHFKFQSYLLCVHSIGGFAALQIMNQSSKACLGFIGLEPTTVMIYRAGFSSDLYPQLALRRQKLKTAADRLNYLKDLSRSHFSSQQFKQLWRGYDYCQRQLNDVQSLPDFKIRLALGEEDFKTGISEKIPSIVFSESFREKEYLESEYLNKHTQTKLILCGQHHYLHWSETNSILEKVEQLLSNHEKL
UniProt Q8DTF4, 1-275 S101A limits assumed: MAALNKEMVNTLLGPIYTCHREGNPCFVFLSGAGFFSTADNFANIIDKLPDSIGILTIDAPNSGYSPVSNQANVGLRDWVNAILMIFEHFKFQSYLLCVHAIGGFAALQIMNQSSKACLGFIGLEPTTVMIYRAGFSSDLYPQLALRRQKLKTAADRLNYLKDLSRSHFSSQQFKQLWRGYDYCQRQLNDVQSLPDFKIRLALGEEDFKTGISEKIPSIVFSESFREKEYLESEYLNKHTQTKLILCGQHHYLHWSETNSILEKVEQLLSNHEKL
UniProt P9WMM5, whole entry: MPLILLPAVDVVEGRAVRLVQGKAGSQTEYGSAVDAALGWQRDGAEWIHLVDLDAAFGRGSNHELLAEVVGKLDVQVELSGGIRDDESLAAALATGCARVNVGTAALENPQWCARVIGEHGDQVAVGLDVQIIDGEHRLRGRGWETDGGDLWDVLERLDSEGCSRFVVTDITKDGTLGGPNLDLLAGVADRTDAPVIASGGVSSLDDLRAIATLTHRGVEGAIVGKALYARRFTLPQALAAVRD
UniProt P9WQP3, 44-338 limits assumed: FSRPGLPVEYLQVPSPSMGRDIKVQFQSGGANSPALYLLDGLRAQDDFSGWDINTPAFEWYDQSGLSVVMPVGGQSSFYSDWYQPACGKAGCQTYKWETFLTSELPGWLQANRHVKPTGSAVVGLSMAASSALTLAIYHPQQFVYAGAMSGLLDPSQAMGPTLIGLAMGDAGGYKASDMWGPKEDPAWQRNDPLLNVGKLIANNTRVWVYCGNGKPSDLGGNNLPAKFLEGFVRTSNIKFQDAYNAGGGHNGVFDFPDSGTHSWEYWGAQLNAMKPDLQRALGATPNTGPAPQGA

What was measured:
Assay in all cases: Fluorescence polarization with 200 nM TFP-probe titrated with protein until saturation, fitted to a one site-specific binding model (with Hill slope for Smu. 1393c).
Smu. 1393c S99A = Smu. 1393c S99A (Streptococcus mutans, UniProt Q8DTF4, S101A)
Procedure: (§1) To quantify OP binding and check for non-covalent interactions, we use fluorescent polarization experiments utilizing the TFP-probe as substrate (Fig. 3b and Supplementarty Fig. 5). We find that Smu. 1393c has low micromolar binding (Kd = 4.17 ± 0.08 μM). Though candidates’ antigen 85-A and phosphoribosyl isomerase show no covalent binding, there are non-covalent binding interactions with Kd’s of 20.9 ± 1.6 μM and 120 ± 10 μM, respectively. All three candidates display binding interactions that validate the predictions from our computational workflow.
(§2) We perform fluorescence polarization using the TFP-probe as substrate. We dilute the TFP-probe to a 200 nM concentration and titrate the given protein measuring the change in polarization until saturation. We fit the obtained data first to a one site-specific binding model, [drawing 1] , and then to a one site-specific binding model with Hill slope, [drawing 2] . There is no substantial difference between the fits for phosphoribosyl isomerase, antigen 85-A, and Smu. 1393c S99A. We find that the one site-specific binding model with Hill coefficient produces a better fit for Smu. 1393c (Hill coefficient = 2.0 ± 0.06).

phosphoribosyl isomerase = phosphoribosyl isomerase (Mycobacterium tuberculosis, UniProt P9WMM5)
Procedure: as §1, §2

Smu. 1393c = Smu. 1393c (Streptococcus mutans, UniProt Q8DTF4)
Procedure: as §1, §2

antigen 85-A = antigen 85-A (Mycobacterium tuberculosis, UniProt P9WQP3)
Procedure: as §1, §2

## ActiveX Tamra fluorophosphonate serine hydrolase probe
Smu. 1393c S99A
  Kd: > 300 µM
Phosphoribosyl isomerase
  Kd: 120 µM
Smu. 1393c
  Kd: 4.17 µM
Antigen 85-A
  Kd: 20.9 µM
